A mixed list of measured activities; the numbers were collected in NIAID ChemDB.

Shared fields: tests in culture; species: Cryptococcus neoformans; endpoint: MFC

An empty or dashed field is not shown. Conditions beyond the fields shown may differ between rows.

compound	read by	strain	value
NCCNC(=O)C1=Nc2ccc(NC(=O)C3=Nc4ccc(C(=O)Nc5ccc6[nH]c(C(=O)NCCN)cc6c5)cc4C3)cc2C1	-	Serotype A	8 µg/mL
CN[C@H]1CC[C@@H](c2ccc(Cl)c(Cl)c2)c2ccccc21	broth dilution	3-10	10 µg/mL
Cn1nc(Cc2ccc(Cl)cc2)c2ccccc2c1=O	broth dilution	Clinical isolate (IM 983036)	≥250 µg/mL
COC1CC2CCC(C)C(O)(O2)C(=O)C(=O)N2CCCCC2C(=O)OC(C(C)CC2CCC(O)C(OC)C2)CC(=O)C(C)/C=C(\C)[C@@](O)(c2ccc(C)s2)C(OC)C(=O)C(C)CC(C)/C=C/C=C/C=C/1C	-	WILD TYPE	>100 µg/mL
C[C@@H](n1cnc2cc(Cl)ccc2c1=O)[C@](O)(Cn1cncn1)c1ccc(F)cc1F	-	Isolate 119.95	0.156 µg/mL
COC1CC2CCC(C)C(O)(O2)C(O)C(O)N2CCCCC2C(=O)OC(C(C)CC2CCC(O)C(OC)C2)CC(=O)C(C)/C=C(\C)C(O)C(OC)C(=O)C(C)CC(C)/C=C/C=C/C=C/1C	-	FRR1	>100 µg/mL
N=C(N)c1ccc(OCCCC(O)COc2ccc(C(=N)N)cc2)cc1	-	133.95	1.56 µg/mL
C[C@H]1[C@H](O)[C@@H](C)/C=C/C=C/C=C/C=C/C=C/C=C/C=C/[C@H](O[C@@H]2O[C@H](C)[C@@H](O)[C@H](N)[C@@H]2O)C[C@@H]2O[C@](O)(C[C@@H](O)C[C@@H](O)CC[C@H](O)[C@@H](O)C[C@@H](O)CC(=O)O[C@H]1C)C[C@H](O)[C@H]2C(=O)O	broth dilution	MTCC 4406	1 µg/mL
C[C@H]1[C@H](O)[C@@H](C)/C=C/C=C/C=C/C=C/C=C/C=C/C=C/[C@H](O[C@@H]2O[C@H](C)[C@@H](O)[C@H](N)[C@@H]2O)C[C@@H]2O[C@](O)(C[C@@H](O)C[C@@H](O)CC[C@H](O)[C@@H](O)C[C@@H](O)CC(=O)O[C@H]1C)C[C@H](O)[C@H]2C(=O)O	visual reading	MTCC 4406	1 µg/mL
N=C(N)c1ccc(OCCCCCCOc2ccc(C(=N)N)cc2)cc1	-	H99	12.5 µg/mL
CCn1nc(-c2cc(C)on2)cc1C	-	-	>200 µM
C[C@H]1[C@H](O)[C@@H](C)/C=C/C=C/C=C/C=C/C=C/C=C/C=C/[C@H](O[C@@H]2O[C@H](C)[C@@H](O)[C@H](N)[C@@H]2O)C[C@@H]2O[C@](O)(C[C@@H](O)C[C@@H](O)CC[C@H](O)[C@@H](O)C[C@@H](O)CC(=O)O[C@H]1C)C[C@H](O)[C@H]2C(=O)O	broth dilution	-	12.5 µg/mL
N=C(N)c1ccc(NCCCNc2ccc(C(=N)N)cc2[N+](=O)[O-])c([N+](=O)[O-])c1	-	135.95	6.25 µg/mL
CCn1nc(C)cc1-c1cc(C)on1	-	-	>200 µM
C[C@@H](n1ncn(-c2ccc(OCC(F)(F)C(F)F)cc2)c1=O)[C@](O)(Cn1cncn1)c1ccc(F)cc1F	-	DUMC 124.96	0.5 µg/mL
Cc1cc(-c2cc(C)n(CCO)n2)no1	-	-	>200 µM
CC(C)N=C(N)c1ccc2nc(-c3ccc(CCc4ccc(-c5nc6ccc(C(N)=NC(C)C)cc6[nH]5)cc4)cc3)[nH]c2c1	-	119.95	0.39 µg/mL

The last 2 rows once more:

Cc1cc(-c2cc(C)n(CCO)n2)no1 ; value: >200 µM
CC(C)N=C(N)c1ccc2nc(-c3ccc(CCc4ccc(-c5nc6ccc(C(N)=NC(C)C)cc6[nH]5)cc4)cc3)[nH]c2c1 ; strain: 119.95 ; value: 0.39 µg/mL